Experimental findings from paper PMC4598760 (Biomolecules, 2015) are described below.

Where two headings read alike, the source gives them in different places.

This data set deals with hemagglutinin (HA) on immobilized influenza virus A/Mem71 (H3N1). The class given is binding, influenza A virus A/Memphis/1971.

With `CC(=O)N[C@H]1[C@H]([C@H](O)[C@H](O)CO)O[C@@](O[C@H]2[C@@H](O)[C@@H](CO)O[C@@H](O[C@H]3[C@H](O)[C@@H](O)C(O)O[C@@H]3CO)[C@@H]2O)(C(=O)O)C[C@@H]1O` (stereo partly drawn) [α2-3 sialyllactose (OS-11), α2-3-sialyllactose], the ΔH was -41.4 kcal/mol and the ΔS is recorded as −0.13 kcal/mol·K. Under “288 K”, this molecule showed a TΔS of -37.9 kcal/mol and a ΔG of -3.44 kcal/mol. For the same molecule, for the setting “293 K”, the TΔS is -38.6 kcal/mol and the ΔG is -2.96 kcal/mol. Further, under “296 K”, the TΔS is -39.0 kcal/mol and the ΔG is -2.35 kcal/mol. For the setting “298 K”, this molecule came in with a TΔS of -39.2 kcal/mol and a ΔG of -2.16 kcal/mol.

`CC(=O)N[C@H]1[C@H]([C@H](O)[C@H](O)CO)O[C@@](OC[C@H]2O[C@@H](O[C@H]3[C@H](O)[C@@H](O)C(O)O[C@@H]3CO)[C@H](O)[C@@H](O)[C@H]2O)(C(=O)O)C[C@@H]1O` (stereo partly drawn) [α2-6 sialyllactose (OS-21), α2-6-sialyllactose] yielded a ΔH of -32.2 kcal/mol and a ΔS of −0.10 kcal/mol·K. Under “288 K”, this molecule gave a TΔS of -29.2 kcal/mol and a ΔG of -2.87 kcal/mol. Under “293 K”, this molecule returned a TΔS of -29.7 kcal/mol and a ΔG of -2.63 kcal/mol. Where the note is “296 K”, the TΔS is -30.0 kcal/mol and the ΔG was -2.21 kcal/mol. Under “298 K”, this molecule yielded a TΔS of -30.2 kcal/mol and a ΔG of -1.82 kcal/mol.
